# Results taken from PubChem BioAssay AID2221 (Broad Institute, 2009).
# Amino acid sequences for entries named in this document (tags omitted).
# UniProt P9WHJ3, whole entry: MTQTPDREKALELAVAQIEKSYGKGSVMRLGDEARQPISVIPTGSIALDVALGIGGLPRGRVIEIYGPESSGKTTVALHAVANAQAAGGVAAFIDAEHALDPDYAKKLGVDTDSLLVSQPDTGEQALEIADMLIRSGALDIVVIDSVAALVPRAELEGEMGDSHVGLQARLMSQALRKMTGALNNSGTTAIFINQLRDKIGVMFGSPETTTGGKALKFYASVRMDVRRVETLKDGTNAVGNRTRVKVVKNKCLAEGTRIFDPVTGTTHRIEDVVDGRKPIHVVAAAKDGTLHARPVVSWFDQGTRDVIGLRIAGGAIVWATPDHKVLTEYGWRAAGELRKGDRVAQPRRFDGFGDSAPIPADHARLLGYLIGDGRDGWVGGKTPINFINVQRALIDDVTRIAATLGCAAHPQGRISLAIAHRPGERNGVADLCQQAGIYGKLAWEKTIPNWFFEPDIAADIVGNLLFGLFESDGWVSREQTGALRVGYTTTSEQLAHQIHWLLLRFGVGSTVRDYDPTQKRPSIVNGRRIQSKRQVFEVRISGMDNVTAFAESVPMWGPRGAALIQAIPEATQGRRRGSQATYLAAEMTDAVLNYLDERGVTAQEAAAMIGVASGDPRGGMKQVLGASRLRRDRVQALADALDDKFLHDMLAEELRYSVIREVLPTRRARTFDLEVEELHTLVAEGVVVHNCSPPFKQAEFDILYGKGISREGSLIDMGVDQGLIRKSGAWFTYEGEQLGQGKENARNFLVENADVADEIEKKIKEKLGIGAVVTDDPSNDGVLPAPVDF
# Only a part is listed here, and it is no random draw. Some salts or complexes appear as unconnected parts, following the source record. Calls of active or inactive are those of the source. Rule as the data show it: active = inhibition above about 30%; inconclusive = no clear call, values can overlap the other calls; inactive = below that.
# Biological target: Protein RecA (Mycobacterium tuberculosis (strain ATCC 25618 / H37Rv)) (UniProt P9WHJ3)
# Assay: Mtb RecA intein splicing inhibitors, primary screen, biochemical, fluorescence, HTS (AID 2221);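 also: 0% = vehicle wells and 100% = reference inhibitor control wells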
# Details: cell-free RecA intein splicing, stronger effect = higher value, concentration not given here
row,SMILES,inhibition
1,O=[N+]([O-])c1cc([N+](=O)[O-])c(Nc2nnnn2CCO)c([N+](=O)[O-])c1,inactive: 4.72%
2,CN(C)C1(CNC(=O)c2ccc(S(C)(=O)=O)cc2)CCCCC1,inactive: -0.55%
3,COc1cc(C2NCCC3(OCCO3)C2(C)C)cc(OC)c1OC.O=[N+]([O-])c1cc([N+](=O)[O-])c(O)c([N+](=O)[O-])c1 (stereo not given),inactive: -1.95%
4,Cc1ccc(C(=O)OC2CN3CCC2CC3)cc1 (stereo not given),inactive: 1.27%
5,CC1CCC(C(C)C)C(OP(=O)(Nc2ccccn2)c2ccccc2)C1 (stereo not given),inactive: 3.42%
6,Cc1nn(-c2ccccc2)c2c1P(=O)(N1CCOCC1)N(C)C(c1ccccc1)=N2 (stereo not given),inactive: -1.07%
7,O=P1(Nc2ccc(Br)cn2)COc2ccccc2OC1,inactive: -1.9%
8,O=[As](O)(c1cccs1)c1cccs1,inactive: -1.14%
9,Cc1ccc(OCC(=O)OC2CN3CCC2CC3)cc1 (stereo not given),inactive: 3.42%
10,Nc1cccc([As](=O)(O)c2ccccc2)c1,inactive: 0.511%
11,CP(=O)(Nc1ccc(SC(F)(F)F)cc1)Oc1ccccc1 (stereo not given),inactive: 0.939%
12,CCCOc1ccc(NP(C)(=O)Oc2ccc(Cl)cc2)cc1 (stereo not given),inactive: 2.48%
13,CN1CCCCC1COC(=O)C1(O)c2ccccc2CCc2ccccc21 (stereo not given),inactive: 1.71%
14,COc1ccccc1OP(C)(=O)Nc1c(C)cccc1C (stereo not given),inactive: 4.14%
15,O=C(O)COc1ccc([As](=O)(O)O)cc1[N+](=O)[O-],inactive: 0.461%
16,Nc1ccccc1[As](=O)(O)c1ccccc1,inactive: -1.45%
17,CS(=O)(=O)c1cc([N+](=O)[O-])c2no[n+]([O-])c2c1,inactive: 5.44%
18,O=P(Nc1nccs1)(c1ccccc1)c1nc2ccccc2s1 (stereo not given),inactive: 25.7%
19,O=P(Nc1nccs1)(Oc1ccccc1)Oc1ccccc1,inactive: -1.39%
20,O=C(O)c1cccc(Nc2c([N+](=O)[O-])cc([N+](=O)[O-])cc2[N+](=O)[O-])c1,active: 81.7%

row,SMILES,inhibition
1,CCOP1(=S)c2c(C)nn(CCC#N)c2N=C(c2ccccc2F)N1C (stereo not given),inactive: 1.16%
2,CN(C(=O)Cc1ccc(Cl)c(Cl)c1)[C@H]1CC[C@@]2(CCCO2)C[C@@H]1N1CCCC1,inactive: 2.28%
3,CC1=NCCc2c1[nH]c1ccccc21.O=[N+]([O-])c1cc([N+](=O)[O-])c(O)c([N+](=O)[O-])c1,inactive: -11.6%
4,CN(C)C(=O)c1cc([N+](=O)[O-])cc2c1-c1c(cc([N+](=O)[O-])cc1[N+](=O)[O-])C2=O,inactive: 4.59%
5,O=[N+]([O-])c1ccc2c(c1)nnn2O,inactive: -1.59%
6,CN(C(=O)Cc1ccccc1)[C@@H]1CC[C@]2(CCCO2)C[C@H]1N1CCCC1,inactive: -3.59%
7,N#CCCN(C(=O)COC(=O)C(O)(c1ccccc1)c1ccccc1)c1ccc(F)cc1,inactive: 6.9%
8,NC(=O)Nc1ccc([As](=O)(O)O)cc1,inactive: 0.865%
9,CCOC(=O)c1ccc(NP(C)(=O)Oc2cc(C)cc(C)c2)cc1 (stereo not given),inactive: 1.95%
10,Cc1cc(C)cc(OP(C)(=O)Nc2ccc(C)cc2C)c1 (stereo not given),inactive: -0.548%
11,O=[As](O)(c1cccc(O)c1)c1cccc(O)c1,inactive: -3.84%
12,Cc1cccc(OCC(=O)OC2CN3CCC2CC3)c1 (stereo not given),inactive: 2.05%
13,COc1ccccc1OP(C)(=O)Nc1cccc(Br)c1 (stereo not given),inactive: 11.6%
14,COc1cc(C(=O)NCC2(N3CCOCC3)CCCCC2)cc(Cl)c1OC(C)C,inactive: 2.81%
15,O=[As](O)(O)c1cccnc1,inactive: 0.288%
16,O=C(OC1CN2CCC1CC2)c1ccc(Cl)cc1 (stereo not given),inactive: 7.41%
17,CCOP(=O)(Nc1cccc2ccccc12)OCC,inactive: 2.32%
18,CCCOP(=S)(Nc1nc(N)cc(=O)[nH]1)OCCC,inactive: 0.228%
19,Cc1ccc(C)c(NP(C)(=O)Oc2ccccc2)c1 (stereo not given),inactive: 0.909%
20,Nc1cccc2c([As](=O)(O)O)cccc12,inactive: 25.1%

row,SMILES,inhibition
1,Cc1ccc(NCCc2c([N+](=O)[O-])cc([N+](=O)[O-])cc2[N+](=O)[O-])cc1,inactive: 6.31%
2,CP(=O)(Nc1cccc(Br)c1)Oc1ccccc1 (stereo not given),inactive: 3.91%
3,Cc1cc(C)cc(OP(C)(=O)Nc2ccccn2)c1 (stereo not given),inactive: 0.558%
4,CP(=O)(Nc1ccccc1F)Oc1ccccc1 (stereo not given),inactive: 1.92%
5,CC(C)c1ccc(OP(C)(=O)Nc2ccc(SC(F)(F)F)cc2)cc1 (stereo not given),inactive: -0.386%
6,CC(C)(C)C(=O)NC(Sc1ccccc1)C(Cl)(Cl)Cl (stereo not given),inactive: 0.826%
7,CCOc1ccc(C2=NCC(CBr)S2)cc1 (stereo not given),inactive: 0.387%
8,O=P1(Nc2nc3ccc(Cl)cc3s2)COc2ccccc2O1 (stereo not given),inactive: -2.72%
9,CC(=O)Nc1ccc(Oc2c([N+](=O)[O-])cc([N+](=O)[O-])cc2[N+](=O)[O-])cc1,inactive: 13.5%
10,COc1ccc2c(c1O)-c1c(O)c(OC)cc3c1[C@H](C2)[N+](C)(C)CC3.O=[N+]([O-])c1cc([N+](=O)[O-])c([O-])c([N+](=O)[O-])c1[O-],inactive: -1.47%
11,CC(=O)Nc1ccc([As](=O)(O)O)c(O)c1,inactive: -0.924%
12,O=C(OC1CN2CCC1CC2)c1ccc([N+](=O)[O-])cc1 (stereo not given),inactive: -0.261%
13,CC(=O)c1ccc(N2CC2c2ccncc2)cc1 (stereo not given),inactive: -1.1%
14,C[C@@H]1C=CCP(=O)(Oc2ccccc2)O1 (stereo not given in full),inactive: 0.0669%
15,C[C@H]1OP(=O)(Oc2ccccc2)C[C@@H]2O[C@@H]21 (stereo not given in full),inactive: 1.17%
16,O=C(OCCN1CCN(CCOCc2ccccc2)CC1)C(O)(c1ccccc1)c1ccccc1,inactive: 11.5%
17,CCOC(=O)c1ccc(NP(C)(=O)Oc2ccc(F)cc2)cc1 (stereo not given),inactive: -0.583%
18,O=C(NC1CCS(=O)(=O)C1)NP(=S)(Oc1ccccc1)Oc1ccccc1 (stereo not given),inactive: 2.64%
19,CCNC(=S)/N=C(\N)N[N+](=O)[O-],inactive: 0.409%
20,CCOC(=O)NC(Sc1ccccc1)C(Cl)(Cl)Cl (stereo not given),inactive: -0.945%
